Anti-infective test results gathered from many reports (values: NIAID ChemDB through PubChem).

Common to all: whole-cell or culture tests; species: Candida glabrata

Zones are inhibition diameters on agar. A number after MIC or MFC names an inhibition level or a share of isolates. Blank or dashed fields: not listed here. ECn: concentration that inhibits the pathogen or its effect by n%. Rows are shuffled and stem from different studies.

COc1ccc(/C=N/O)cc1 ; measure: MIC100 ; value: 6620 µM
NC=Nc1cccc(SCc2ccc(Cl)cc2)c1 ; strain: BG2 ; measure: MFC ; value: 50 µM
COc1ccc(/C=N\O)cc1 ; read by: broth dilution ; measure: MIC100 ; value: 6620 µM
C[C@H]1[C@H](O)[C@@H](C)/C=C/C=C/C=C/C=C/C=C/C=C/C=C/[C@H](O[C@@H]2O[C@H](C)[C@@H](O)[C@H](N)[C@@H]2O)C[C@@H]2O[C@](O)(C[C@@H](O)C[C@@H](O)CC[C@H](O)[C@@H](O)C[C@@H](O)CC(=O)O[C@H]1C)C[C@H](O)[C@H]2C(=O)O ; strain: CCC 115 ; read by: broth dilution / absorbance ; measure: MIC100 ; value: 0.39 µg/mL
O/N=C\c1ccc(O)cc1 ; read by: broth dilution ; measure: MFC ; value: >7290 µM
CC[C@@H]([C@H](C)O)n1ncn(-c2ccc(N3CCN(c4ccc(OC[C@@H]5CO[C@@](Cn6cncn6)(c6ccc(F)cc6F)C5)cc4)CC3)cc2)c1=O ; read by: broth dilution ; measure: MIC90 ; value: 1 µg/mL
O=[N+]([O-])c1ccc(/C=N\O)cc1 ; measure: MIC100 ; value: 3010 µM
CCC(C)CC(C)CCCCCCCCC(=O)N[C@H]1C[C@@H](O)[C@H](NCCN)NC(=O)[C@@H]2[C@@H](O)CCN2C(=O)[C@H]([C@H](O)CCN)NC(=O)[C@H]([C@H](O)[C@@H](O)c2ccc(O)cc2)NC(=O)[C@@H]2C[C@@H](O)CN2C(=O)[C@H]([C@@H](C)O)NC1=O ; strain: 40 isolates ; read by: broth dilution ; setting: pH 5 ; measure: MIC ; value: 0.5 µg/mL
NC(=O)N/N=C/c1ccsc1.NC(=O)N/N=C/c1ccsc1.[Cl][Ni][Cl] ; strain: LMA 1085 ; read by: turbidity / absorbance ; measure: MIC80 ; value: 62 µg/mL
Clc1ccc(C(c2ccccc2)N2CCN(CCn3ccnc3)CC2)cc1 ; read by: broth dilution ; measure: MFC ; value: >256 µg/mL
C=CC(C)(C)c1cc(C2CC(=O)c3c(cc(O)c(CC=C(C)C)c3O)O2)c(O)cc1O ; strain: hemoculture isolate 36293 ; read by: agar diffusion / agar ; measure: zone ; dose: 2 mg/mL ; value: 0 mm
O/N=C\c1ccccc1 ; measure: MIC100 ; value: 8260 µM
Clc1ccc(C(c2ccccc2)n2cncn2)cc1 ; read by: broth dilution ; measure: MFC ; value: 128 µg/mL
Cc1ccc(-c2c3c(N)c4c(nc3nc3c2c(C)nn3-c2ccccc2)CCCC4)cc1 ; strain: CCC 115 ; read by: broth dilution / absorbance ; measure: MIC50 ; value: >250 µg/mL
CC(C)CC(O)C(=O)O ; strain: CCUG 32725 ; read by: broth dilution / visual reading ; measure: MFC100 ; value: 72000 µg/mL
C=CCc1ccc(O)c(OC)c1 ; strain: 2624 ; read by: turbidity ; measure: MIC90 ; value: 500 µg/mL
NC(=O)c1cc[n+](Cc2ccc(C[n+]3ccc(C(N)=O)cc3)o2)cc1.[Br-].[Br-] ; read by: broth dilution ; measure: EC50 ; value: >20 µg/mL
NC=Nc1ccc(SCc2cc(Br)cc(Br)c2)cc1 ; strain: BG2 ; measure: MFC ; value: >100 µM
Cc1ccc(-c2c3c(N)c4c(nc3nc3c2c(C)nn3-c2ccccc2)CCCCC4)cc1 ; strain: CCC 115 ; read by: broth dilution / absorbance ; measure: MIC80 ; value: >250 µg/mL
Clc1ccc(C(c2ccccc2)n2cnc3ccccc32)cc1 ; read by: broth dilution ; measure: MFC ; value: >256 µg/mL
Clc1ccccc1C(c1ccccc1)(c1ccccc1)n1ccnc1 ; strain: 40 isolates ; read by: broth dilution ; setting: pH 5 ; measure: EC90 ; value: 8 µg/mL
ON=Cc1ccc[n+](Cc2csc3ccccc23)c1.[Cl-] ; read by: broth dilution ; measure: EC50 ; value: >20 µg/mL
Cc1ccc(-c2c3c(N)c4c(nc3nc3c2c(C)nn3-c2ccccc2)CCC4)cc1 ; strain: CCC 115 ; read by: broth dilution / absorbance ; measure: MIC80 ; value: >250 µg/mL
Clc1ccc(COC(Cn2ccnc2)c2ccc(Cl)cc2Cl)c(Cl)c1 ; strain: 40 isolates ; read by: broth dilution ; setting: pH 6 ; measure: EC90 ; value: 1 µg/mL
Clc1ccc(C(c2ccccc2)n2nnc3ccccc32)cc1 ; read by: agar ; measure: MIC90 ; value: >256 µg/mL
CC(C)CC(=O)C(=O)O ; strain: G 212 ; read by: broth dilution ; measure: MFC100 ; value: >72000 µg/mL
CCOc1ccc2nc3cc(N=C4NC(=O)/C(=C\C=C\c5ccc([N+](=O)[O-])o5)S4)ccc3c(N)c2c1 ; read by: broth dilution ; measure: MFC ; value: 1000 µg/mL
O=C(c1ccccc1)C(c1ccccc1)n1nnc2ccccc21 ; read by: broth dilution ; measure: MFC ; value: >256 µg/mL
CCCCCOc1ccc(-c2cc(-c3ccc(C(=O)N[C@H]4C[C@@H](O)[C@@H](O)NC(=O)[C@@H]5[C@@H](O)[C@@H](C)CN5C(=O)[C@H]([C@H](O)CC(N)=O)NC(=O)[C@H]([C@H](O)[C@@H](O)c5ccc(O)c(OS(=O)(=O)O)c5)NC(=O)[C@@H]5C[C@@H](O)CN5C(=O)[C@H]([C@@H](C)O)NC4=O)cc3)no2)cc1 ; read by: broth dilution ; measure: MIC50 ; value: 0.03 µg/mL
NC(=O)c1cc[n+](Cc2ccc(C[n+]3ccc(/C=N/O)cc3)s2)cc1.[Cl-].[Cl-] ; read by: broth dilution ; measure: EC50 ; value: >20 µg/mL
C[C@@H]1[C@H](O)[C@@H](C)/C=C/C=C/C=C/C=C/C=C/C=C/C=C/[C@H](O[C@@H]2O[C@H](C)[C@@H](O)[C@H](N)[C@@H]2O)C[C@@H]2O[C@](O)(C[C@@H](O)C[C@@H](O)[C@H](O)CC[C@@H](O)C[C@@H](O)CC(=O)O[C@H]1C)C[C@H](O)[C@H]2C(=O)O ; strain: LMA 1085 ; read by: turbidity / absorbance ; measure: MIC80 ; value: 0.125 µg/mL
Nc1ncccc1-c1cc(Cc2ccc(COc3ccccn3)cc2)no1 ; read by: broth dilution ; measure: MIC90 ; value: 0.06 µg/mL
CC[C@@H]([C@H](C)O)n1ncn(-c2ccc(N3CCN(c4ccc(OC[C@@H]5CO[C@@](Cn6cncn6)(c6ccc(F)cc6F)C5)cc4)CC3)cc2)c1=O ; strain: 40 isolates ; read by: broth dilution ; setting: pH 7 ; measure: EC90 ; value: 0.5 µg/mL
CCC(C)CC(C)CCCCCCCCC(=O)N[C@H]1C[C@@H](O)[C@H](NCCN)NC(=O)[C@@H]2[C@@H](O)CCN2C(=O)[C@H]([C@H](O)CCN)NC(=O)[C@H]([C@H](O)[C@@H](O)c2ccc(O)cc2)NC(=O)[C@@H]2C[C@@H](O)CN2C(=O)[C@H]([C@@H](C)O)NC1=O ; read by: broth dilution ; measure: MIC90 ; value: 2 µg/mL

For reference, 5 entries again:

structure	strain	read by	setting	measure	dose	value
COc1ccc(/C=N/O)cc1	-	-	-	MIC100	-	6620 µM
Clc1ccc(C(c2ccccc2)n2cnc3ccccc32)cc1	-	broth dilution	-	MFC	-	>256 µg/mL
C[C@@H]1[C@H](O)[C@@H](C)/C=C/C=C/C=C/C=C/C=C/C=C/C=C/[C@H](O[C@@H]2O[C@H](C)[C@@H](O)[C@H](N)[C@@H]2O)C[C@@H]2O[C@](O)(C[C@@H](O)C[C@@H](O)[C@H](O)CC[C@@H](O)C[C@@H](O)CC(=O)O[C@H]1C)C[C@H](O)[C@H]2C(=O)O	LMA 1085	turbidity / absorbance	-	MIC80	-	0.125 µg/mL
Clc1ccc(COC(Cn2ccnc2)c2ccc(Cl)cc2Cl)c(Cl)c1	40 isolates	broth dilution	pH 6	EC90	-	1 µg/mL
Clc1ccc(C(c2ccccc2)n2nnc3ccccc32)cc1	-	agar	-	MIC90	-	>256 µg/mL